Anti-infective test results gathered from many reports (values: NIAID ChemDB through PubChem).

Common to all: host cell toxicity; cell line: VERO; measure: CC50

Conditions beyond the fields shown may differ between rows. An empty or dashed field is not shown. CCn is the concentration with n% toxicity to the cells.

SMILES | read by | result
CCOC(=O)c1cc(COc2ccc3cccnc3c2)on1 | - | 107.6 µM
O=c1[nH]c(=O)n([C@H]2C[C@H](O)[C@@H](CO)S2)cc1F | - | 93 µM
CCCCCC[n+]1ccc2cc(OC)c(OC)c3c2c1C=CN3 | - | 11.8 µM
CC(C)OC1[C@H](n2ccc(=O)[nH]c2=O)O[C@H](COS(=O)(=O)NC(=O)NC[C@H]2O[C@H](COCc3ccccc3)[C@@H](OCc3ccccc3)[C@H](OCc3ccccc3)[C@H]2OCc2ccccc2)[C@H]1OC(C)C | - | 100 µg/mL
CC1(C)C[C@H]2[C@H](OC(=O)[C@H](O)[C@@H](NC(=O)c3ccccc3)c3ccccc3)c3cocc3C[C@](C)(O)[C@H]2C1 | - | 289.7 µg/mL
CN1c2c(-c3ccccc3)nn(CC(=O)N/N=C/c3ccc([N+](=O)[O-])cc3)c2-c2ccccc2S1(=O)=O | - | >100 µM
Clc1ccc(/C(Cn2ccnc2)=N\OC/C=C/c2ccccc2)cc1 | - | 6 µg/mL
O=C(NN=Cc1ccc([N+](=O)[O-])cc1)c1ccccc1Sc1ccccc1 | - | >50 µg/mL
CCCCCCOC(=O)c1cc(COc2cc(C(F)(F)F)nc3c(C(F)(F)F)cccc23)on1 | - | >128 µM
O=c1[nH]cnc2c1ncn2[C@@H]1O[C@@H](CO)[C@H](O)C1(F)F | - | >100 µM
CC(=O)OC[C@H]1O[C@@H](OC(=O)NS(=O)(=O)OC[C@H]2O[C@@H](n3ccc(=O)[nH]c3=O)[C@H](OC(C)C)[C@@H]2OC(C)C)[C@@H](OC(C)=O)[C@@H](OC(C)=O)[C@@H]1OC(C)=O | - | >100 µg/mL
CC1(C)C[C@@H]2[C@@H](OC(=O)[C@H](O)[C@@H](NC(=O)c3ccccc3)c3ccccc3)c3cocc3C[C@](C)(O)[C@H]2C1 | - | 135.5 µg/mL
O=c1ccn([C@@H]2C[C@@H](F)[C@H](CO)O2)c(=O)[nH]1 | - | >100 µM
CC1=C2CC(C)(C)C[C@H]2[C@H](OC(=O)[C@H](O)[C@@H](NC(=O)c2ccccc2)c2ccccc2)c2cocc2C1 | - | 271.1 µg/mL
COc1cc2c(cc1OC)C1=NN(C(=O)Nc3ccc(Cl)cc3)C(c3ccncc3)C1C2 | MTT | >139.2 µM
Nc1ncnc2c1ncn2C=C1CC1CO | - | 28 µM
CCOC(=O)c1cc(COc2ccc([N+](=O)[O-])c(C(F)(F)F)c2)on1 | - | >128 µM
CN1c2c(-c3ccccc3)nn(CC(=O)N/N=C/c3ccc(O)cc3O)c2-c2ccccc2S1(=O)=O | - | 4.3 µM
O=c1[nH]c(=O)n([C@@H]2O[C@@H](CO)[C@H](O)C2(F)F)cc1I | - | >100 µM
Clc1ccc(/C(Cn2ccnc2)=N\OCc2ccc(-c3ccccc3)cc2)c(Cl)c1 | - | 6 µg/mL
CCCCCCCCCCCCCCCC[n+]1ccc2cc(OC)c(OC)c3c2c1C=CN3 | - | 2.2 µM
O=C1c2ccccc2C(=O)N1CC1=NNC(=Nc2ccccc2)SC1 | - | 192 µg/mL
C1=CCC2(CC1)COC(c1ccco1)OC2 | MTT | >500 µg/mL
O=C(OCCC(F)(F)F)c1cc(COc2cc(C(F)(F)F)nc3c(C(F)(F)F)cccc23)on1 | - | >128 µM
CC(=O)N[C@H]1[C@@H](OC(=O)NS(=O)(=O)OC[C@H]2O[C@@H](n3ccc(=O)[nH]c3=O)[C@H](OC(C)C)[C@@H]2OC(C)C)O[C@H](COC(C)=O)[C@@H](OC(C)=O)[C@@H]1OC(C)=O | - | 100 µg/mL
O=C(NN=Cc1ccc([N+](=O)[O-])s1)c1ccccc1Sc1ccccc1 | - | 3.11 µg/mL
COc1cccc2c1C(=O)c1c(O)c3c(c(O)c1C2=O)C[C@@](O)(C(=O)CO)C[C@@H]3O[C@H]1C[C@H](N)[C@H](O)[C@H](C)O1 | - | 97 µM
CC(C)O[C@@H]1[C@H](OC(C)C)[C@@H](COCCCC2O[C@H](COC(=O)c3ccccc3)[C@@H](OC(=O)c3ccccc3)[C@H](OC(=O)c3ccccc3)[C@H]2OC(=O)c2ccccc2)O[C@H]1n1ccc(=O)[nH]c1=O | - | 75 µg/mL
CC1(C)C[C@H]2[C@@H](OC(=O)[C@H](O)[C@@H](NC(=O)c3ccccc3)c3ccccc3)C34COC(=O)C3(C4)C[C@@](C)(O)[C@H]2C1 | - | 77.3 µg/mL
COc1ccc(/C=N/NC(=O)Cn2nc(-c3ccccc3)c3c2-c2ccccc2S(=O)(=O)N3C)c(OC)c1 | - | >100 µM
COc1cc2ccnc3c2c(c1OS(C)(=O)=O)N(C)C=C3 | - | 3.5 µM
CC(C)c1ccc(NC(=O)N2CCC[C@H]2C(=O)N2CC[C@H]3[C@H]2[C@H](C)C(=O)N3C(=O)c2ccc([N+](=O)[O-])cc2)cc1 | - | 69 µM
COc1cc2ccnc3c2c(c1OC)N(CCC(C)C)C=C3 | - | 17.6 µM
COc1cc2c(cc1OC)C1=NN(C(=O)Nc3ccc([N+](=O)[O-])cc3)C(c3ccncc3)C1C2 | MTT | 68 µM
CC(C1=NN=C(N(C)C)SC1)N1C(=O)c2ccccc2C1=O | - | 333 µg/mL
c1ccc(/C(Cn2ccnc2)=N\OCc2ccc(-c3ccccc3)cc2)cc1 | - | 6 µg/mL
COc1cc(/C=N/NC(=O)Cn2nc(-c3ccccc3)c3c2-c2ccccc2S(=O)(=O)N3C)cc(OC)c1OC | - | >100 µM
Nc1nc(=O)n([C@@H]2O[C@@H](CO)[C@H](O)C2(F)F)cc1Cl | - | >100 µM
COc1cc2c3c(ccnc3c1OC)NC=C2 | - | 23.1 µM
c1ccc(CO/N=C(/Cn2ccnc2)c2ccccc2)cc1 | - | 1 µg/mL
CCCCCCCN1C=Cc2nccc3cc(OC)c(OC)c1c23 | - | 3.7 µM
COc1ccc(N=C2NN=C(C(C)N3C(=O)c4ccccc4C3=O)CS2)cc1 | - | 192 µg/mL
CCCCCCCCCCCCN1C=Cc2cc(OC)c(OC)c3c2c1cc[n+]3CCCCCCCCCCCC | - | <1 µM
CC(=O)O[C@H]1C2=C(C[C@](C)(O)[C@H]3C[C@](C)(COC(=O)[C@H](O)[C@@H](NC(=O)c4ccccc4)c4ccccc4)C[C@@H]13)C(=O)OC2 | - | >1000 µg/mL
Cc1cn([C@H]2O[C@@H](CO)[C@H](O)C2(F)F)c(=O)[nH]c1=O | - | >100 µM
CCOC(=O)c1ccc(OC(=O)CCCCCN=C(N)N)cc1.COS(=O)(=O)O | MTT | 150 µg/mL
Fc1ccc(/C(Cn2ccnc2)=N/OCc2cccc3ccccc23)cc1 | - | 6 µg/mL
C=CCN=C1NN=C(C(C)N2C(=O)c3ccccc3C2=O)CS1 | - | 557 µg/mL
CCOC(=O)c1cc(COc2cccc3cccnc23)on1 | - | >128 µM
C#CCc1cn([C@H]2C[C@H](O)[C@@H](CO)S2)c(=O)[nH]c1=O | - | 492 µM
CC(C)c1ccc(NC(=O)N2CCC[C@H]2C(=O)N2CC[C@H]3[C@H]2[C@H](C)C(=O)N3C(=O)c2nc3ccccc3s2)cc1 | - | >500 µM
Nc1nc2c(ncn2[C@@H]2C[C@@H](F)[C@H](CO)O2)c(=O)[nH]1 | - | >100 µM
O=C(NN=Cc1ccccc1)c1ccccc1Sc1ccccc1 | - | >50 µg/mL
O=C1c2ccccc2C(=O)N1CCC1=NNC(=Nc2ccccc2)SC1 | - | 192 µg/mL
C=CCNC(=S)Nc1ccc(-c2n[nH]c(=S)n2C)cc1 | - | <0.698 µg/mL
CCOC(=O)c1cc(COc2ccc3ncccc3c2)on1 | - | >128 µM
O=c1[nH]c(=O)n([C@H]2C[C@H](O)[C@@H](CO)S2)cc1C=C(F)F | - | >500 µM
COc1cc2c(cc1OC)C1=NN(C(=O)Nc3ccc(Cl)cc3)C(c3ccc(F)cc3)C1C2 | MTT | >133.6 µM
O=c1[nH]c(=O)n([C@H]2C[C@H](O)[C@@H](CO)S2)cc1C(F)=C(Cl)Cl | - | >500 µM
O=C(NS(=O)(=O)OCCOCn1ccc(=O)[nH]c1=O)O[C@H]1O[C@H](COCc2ccccc2)[C@@H](OCc2ccccc2)[C@H](OCc2ccccc2)[C@H]1OCc1ccccc1 | - | 75 µg/mL
CC1(C)C[C@H]2[C@H](OC(=O)[C@H](O)[C@@H](NC(=O)c3ccccc3)c3ccccc3)C3=C(C[C@](C)(O)[C@H]2C1)C(=O)OC3 | - | 276.4 µg/mL
CCN1C=Cc2nccc3cc(OC)c(OC)c1c23 | - | 46.8 µM
O=c1[nH]c(=O)n([C@H]2C[C@H](O)[C@@H](CO)S2)cc1CCCl | - | >200 µM
O=c1[nH]cnc2c1ncn2[C@@H]1C[C@@H](F)[C@H](CO)O1 | - | >100 µM
CC(C)O[C@@H]1[C@H](OC(C)C)[C@@H](COS(=O)(=O)NC(=O)O[C@H]2O[C@H](COCc3ccccc3)[C@@H](OCc3ccccc3)[C@H](OCc3ccccc3)[C@H]2OCc2ccccc2)O[C@H]1n1ccc(=O)[nH]c1=O | - | 100 µg/mL
CC(C)c1ccc(NC(=O)N2CCC[C@H]2C(=O)N2CC[C@H]3[C@H]2[C@H](C)C(=O)N3C(=O)C2C(C)(C)C2(C)C)cc1 | - | 38 µM
CN1c2c(-c3ccccc3)nn(CC(=O)N/N=C/c3ccc(Cl)c(Cl)c3)c2-c2ccccc2S1(=O)=O | - | >100 µM
Nc1nc(Cl)c2ncn(/C=C3/C[C@H]3CO)c2n1 | - | 52 µM
COS(=O)(=O)O.N=C(N)c1ccc2cc(OC(=O)c3ccc(N=C(N)N)cc3)ccc2c1 | MTT | 110 µg/mL
CC(C1=NNC(=NCc2ccccc2)SC1)N1C(=O)c2ccccc2C1=O | - | 192 µg/mL
O=C(NN=Cc1ccncc1)c1ccccc1Sc1ccccc1 | - | >50 µg/mL

Repeating the first 7 entries:

SMILES	read by	result
CCOC(=O)c1cc(COc2ccc3cccnc3c2)on1	-	107.6 µM
O=c1[nH]c(=O)n([C@H]2C[C@H](O)[C@@H](CO)S2)cc1F	-	93 µM
CCCCCC[n+]1ccc2cc(OC)c(OC)c3c2c1C=CN3	-	11.8 µM
CC(C)OC1[C@H](n2ccc(=O)[nH]c2=O)O[C@H](COS(=O)(=O)NC(=O)NC[C@H]2O[C@H](COCc3ccccc3)[C@@H](OCc3ccccc3)[C@H](OCc3ccccc3)[C@H]2OCc2ccccc2)[C@H]1OC(C)C	-	100 µg/mL
CC1(C)C[C@H]2[C@H](OC(=O)[C@H](O)[C@@H](NC(=O)c3ccccc3)c3ccccc3)c3cocc3C[C@](C)(O)[C@H]2C1	-	289.7 µg/mL
CN1c2c(-c3ccccc3)nn(CC(=O)N/N=C/c3ccc([N+](=O)[O-])cc3)c2-c2ccccc2S1(=O)=O	-	>100 µM
Clc1ccc(/C(Cn2ccnc2)=N\OC/C=C/c2ccccc2)cc1	-	6 µg/mL